Laboratory results from PMC7077018, “Gas chromatography-mass spectrometry analysis, phytochemical screening and antiprotozoal effects of the methanolic Viola tricolor and acetonic Laurus nobilis extracts” (BMC Complementary Medicine and Therapies, 2020).

Tests used:
Experiment in all cases: Babesia fluorescent (SYBR Green I) in vitro growth inhibition assay
Format in all cases: cell-based
[1] = tested on: B. divergens
Excerpt: (§1) For the in vitro experiments, a German strain B. divergens, Argentine strain B. bigemina, Texas strain B. bovis, were cultivated in cattle RBCs, while USDA strains of equine piroplasm parasites (T. equi and B. caballi) were maintained in horse RBCs. […] For conducting the in vivo study, female BALB/c mice, aged six-week, obtained from CLEA Japan were infected with B. microti Munich strain [1]. […] GIT medium replenished with 40% horse serum was used as a growth medium for B. caballi parasite culture. To ensure free-bacterial contamination, all medium was supplemented with amphotericin B (0.15 μg/mL) (Sigma-Aldrich, USA), streptomycin (60 U/mL) and penicillin G (60 U/mL). The Babesia fluorescent assay was carried out on the in vitro culture as previously reported elsewhere. […] On day four of culture, an aliquot (100 μL) of lysis buffer was added to 0.2 μL/mL SG1 per well; subsequently, it was covered with aluminum foil to prevent exposure to light. After a 6-h incubation at 37 °C, fluorescence readings were acquired on a spectrofluorimeter (Fluoroskan Ascent, Thermo Fisher Scientific, USA) with a 485 nm excitation wavelength and a 518 nm emission wavelength. The IC50 values of the two extracts, DMA and ATV were established from the in vitro growth inhibition by nonlinear regression curve fit on a GraphPad Prism (GraphPad Software Inc., USA). While for in vivo, the significant variations (p < 0.05) among group mean values on parasitemia and one-way ANOVA Tukey's test in GraphPad Prism version 5.0 was used to analyze hematology profiles in mice infected with B. microti.

[2] = tested on: B. bigemina
Excerpt: as §1

[3] = tested on: B. caballi
Excerpt: as §1

[4] = tested on: B. bovis
Excerpt: as §1

For `CC(=O)NCC(=O)O.CC(=O)NCC(=O)O.N=C(N)c1ccc(N=NNc2ccc(C(=N)N)cc2)cc1` [DMA, diminazene aceturate], the “Selective indices HFF” value ([1]; EC50 HFF / IC50 B. divergens) was “˃ 285.7”, the “Selective indices MDBK” value ([1]; EC50 MDBK / IC50 B. divergens) was “˃ 285.7” and the “Selective indices NIH/3 T3” value ([1]; EC50 NIH/3 T3 / IC50 B. divergens) was “˃ 285.7”. The “Selective indices HFF” value ([2]; EC50 HFF / IC50 B. bigemina) was “˃ 909”, the “Selective indices MDBK” value ([2]; EC50 MDBK / IC50 B. bigemina) was “˃ 909” and the “Selective indices NIH/3 T3” value ([2]; EC50 NIH/3 T3 / IC50 B. bigemina) was “˃ 909”. The “Selective indices HFF” value ([3]; EC50 HFF / IC50 B. caballi) was “˃ 33333.3”, the “Selective indices MDBK” value ([3]; EC50 MDBK / IC50 B. caballi) was “˃ 33333.3” and the “Selective indices NIH/3 T3” value ([3]; EC50 NIH/3 T3 / IC50 B. caballi) was “˃ 33333.3”. The “Selective indices HFF” value ([4]; EC50 HFF / IC50 B. bovis) was “˃ 400”, the “Selective indices MDBK” value ([4]; EC50 MDBK / IC50 B. bovis) was “˃ 400” and the “Selective indices NIH/3 T3” value ([4]; EC50 NIH/3 T3 / IC50 B. bovis) was “˃ 400”.
